Experiments:
[1] = biological target: NA of recombinant WT A/Turkey/15/06 (H5N1) virus (Influenza A virus (A/Turkey/15/2006(H5N1)), UniProt A5HJ19); assay: NA enzyme kinetics (Ki), WT virus
[2] = biological target: NA of recombinant WT A/Turkey/15/06 (H5N1) virus (Influenza A virus (A/Turkey/15/2006(H5N1)), UniProt A5HJ19); assay: NA enzyme inhibition assay (MUNANA), WT virus

| SMILES | Mean fold change in Ki compared to WT [1] | Mean fold change in IC50 compared to WT [2] |
| --- | --- | --- |
| CCC(CC)O[C@@H]1C=C(C(=O)O)C[C@H](N)[C@H]1NC(C)=O | 1.0 fold | 1.0 fold |
| CCOC(=O)C1=C[C@@H](OC(CC)CC)[C@H](NC(C)=O)[C@@H](N)C1 | – | 1.0 fold |
| CC(=O)N[C@H]1[C@H]([C@H](O)[C@H](O)CO)OC(C(=O)O)=C[C@@H]1N=C(N)N | 1.0 fold | 1.0 fold |

— paper PMC2877746
